Compound potency records, mixed from different reports. Data source: NIAID ChemDB in PubChem.

Common to all: growth or infection tests; organism: HIV-1; endpoint: EC50

Lines come from different laboratories, so protocols vary.

| smiles | cells | setting | mutations | read by | strain | value |
|---|---|---|---|---|---|---|
| CCOCn1c(Cc2cc(C)cc(C)c2)c(CC)c(=O)[nH]c1=O | CEM | - | RT-K103N | syncytia | IIIB TIBO R82913 STR-2 (RT K103N) | 0.01 µM |
| Cc1ccnc2c1NC(=O)c1cccnc1N2C1CC1 | MT-4 | - | RES056 | MTT | IIIB | 2.221 µM |
| O=C(N/N=C/c1cccc(O)c1)c1csc(N2N=C(c3ccccc3)CC2c2ccc(Cl)cc2)n1 | MT-4 | - | - | MTT / absorbance | IIIB | >66.85 µM |
| COC(=O)c1ccc(F)c2c(C(=O)C(=O)N3CCN(C(=O)c4ccccc4)CC3)c[nH]c12 | MT-2 | - | - | p24 / ELISA / entry | 91US005 | 0.0004 µM |
| Cc1cn([C@@H]2O[C@H](CO[Si](C)(C)C(C)(C)C)C3(OS(=O)(=O)C=C3N)[C@H]2O[Si](C)(C)C(C)(C)C)c(=O)n(C)c1=O | CEM | - | RT-L100I Y188H | syncytia | IIIB TIBO R82913 STR-B22 (RT L100I Y188H) | ≥50 µM |
| Cc1cc(C#CC2CC2)cc(C)c1Oc1ccnc(Nc2ccc(C#N)cc2)n1 | MT-4 | - | K103N | MTT | IIIB | 0.013 µM |
| Nc1ncnc2c1ncn2[C@H]1C=C[C@@H](CO)C1 | MT-4 | - | - | cytopathic effect / propidium iodide | IIIB | 12 µM |
| O=c1[nH]cnc2c1ncn2[C@H]1CC[C@@H](CO)O1 | CEM | - | RT-L100I Y181C | syncytia | IIIB TIBO R82913 STR-1 (RT L100I Y181C) | 15 µM |
| COc1ccccc1/C=N/NC(=O)c1csc(N2N=C(c3ccccc3)CC2c2ccc(Cl)cc2)n1 | MT-4 | - | - | MTT / absorbance | IIIB | >10.32 µM |
| CCCCOCc1cn([C@@H]2C[C@H](N=[N+]=[N-])[C@@H](CO)O2)c(=O)[nH]c1=O | MT-4 | - | - | ELISA / antigen | IIIB | >100 µM |
| CCCCCCCCCCCCSCC(COP(=O)([O-])OCC[N+](C)(C)C)OCCCCCCCCC(=O)OCC(=O)OC[C@H]1O[C@@H](n2cc(C)c(=O)[nH]c2=O)C[C@@H]1N=[N+]=[N-] | CEM + CEM-SS | - | - | plaque count | HXB2 WT | 0.003 µM |
| O=C(N/N=C/c1cc(Br)ccc1O)c1csc(N2N=C(c3ccccc3)CC2c2ccc(Cl)cc2)n1 | MT-4 | - | - | MTT / absorbance | IIIB | >125 µM |
| Cc1cc(C#Cc2ccccc2)cc(C)c1Oc1ccnc(NC2CCN(Cc3ccc(S(N)(=O)=O)cc3)CC2)n1 | MT-4 | - | L100I | MTT | IIIB | >0.766 µM |
| CC(C)(C)NC(=O)[C@@H]1CCCN1C(=O)[C@@H](O)[C@H](Cc1ccccc1)NC(=O)[C@H](CC(N)=O)NC(=O)OCc1ccccc1 | ATH8 | - | - | trypan blue | LAI | 1.1 µM |
| Cc1cn([C@H]2C[C@H](N=[N+]=[N-])[C@@H](CO)O2)c(=O)nc1NNCCO | C8166 | - | - | MTT / ELISA | IIIB | 0.16 µM |
| Cc1ccnc2c1NC(=O)c1cccnc1N2C1CC1 | MAGI | - | RT-V106I E138K P236L | β-galactosidase | NNRTI-resistant (RT V106I E138K P236L) | 0.079 µM |
| CSC[C@H](NC(=O)COc1cccc2cnccc12)C(=O)N[C@@H](Cc1ccccc1)[C@H](O)C(=O)N1CSC(C)(C)[C@H]1C(=O)NC(C)(C)C | ATH8 | - | - | trypan blue | MN | 0.03 µM |
| O=C(NCCCCCCNC(=O)c1cc2cc(O)c(O)cc2[nH]1)c1cc2cc(O)c(O)cc2[nH]1 | MT-4 | - | - | fluorescence | IIIB | >171 µM |
| CCc1cn([C@H]2C[C@H](N=[N+]=[N-])[C@@H](CO)O2)c(=O)[nH]c1=O | MT-4 | - | - | ELISA / antigen | IIIB | 64 µM |
| Cc1cc(C)cc([C@]23SCCN2C(=O)c2ccccc23)c1 | PBMC | - | - | p24 / ELISA | D148/88 | 0.008 µM |
| Cc1cn([C@H]2C[C@H](N=[N+]=[N-])[C@@H](CO)O2)c(=O)nc1N(C)C | C8166 | - | - | MTT / ELISA | IIIB | 1.6 µM |
| Cc1cn([C@@H]2O[C@H](CO[Si](C)(C)C(C)(C)C)[C@@]3(OS(=O)(=O)C=C3N)[C@H]2O[Si](C)(C)C(C)(C)C)c(=O)[nH]c1=O | CEM | - | RT-L100I Y181C | syncytia | IIIB TIBO R82913 STR-1 (RT L100I Y181C) | 3 µM |
| CCNc1cccnc1N1CCN(C(=O)c2cc3cc(OC)ccc3[nH]2)CC1 | CEM | - | RT-Y181C | syncytia | IIIB-Nevirapine(0.1)(RT-Y181C) | 0.067 µg/mL |
| Cc1cc(C#Cc2cccc(N)c2)cc(C)c1Oc1ccnc(Nc2ccc(C#N)cc2)n1 | MT-4 | - | E138K | MTT | IIIB | 0.135 µM |
| O=c1[nH]cnc2c1ncn2[C@H]1CC[C@@H](CO)O1 | CEM | - | RT-L100I | syncytia | IIIB-BHAP)(0.1)(RT-L100I | 11 µM |
| Cc1ccnc2c1NC(=O)c1cccnc1N2C1CC1 | PBMC | - | - | p24 / ELISA | D148/88 | 0.368 µM |
| Nc1nc(N2CCC2)c2ncn([C@H]3C=C[C@@H](CO)C3)c2n1 | MT-4 | - | - | cytopathic effect / propidium iodide | IIIB | 6.1 µM |
| CCOCc1cn([C@H]2C[C@H](N=[N+]=[N-])[C@@H](CO)O2)c(=O)[nH]c1=O | MT-4 | - | - | ELISA / antigen | IIIB | >100 µM |
| OC[C@@H]1C=C[C@H](n2cnc3c(NC4CC4)ncnc32)C1 | MT-4 | - | - | cytopathic effect / propidium iodide | IIIB | >200 µM |
| Cc1cc(C#Cc2cccc(N)c2)cc(C)c1Oc1ccnc(NC2CCN(Cc3ccc(S(N)(=O)=O)cc3)CC2)n1 | MT-4 | - | Y188L | MTT | IIIB | 0.098 µM |
| CSC[C@H](NC(=O)COc1cccc2ccccc12)C(=O)N[C@@H](Cc1ccccc1)[C@H](O)C(=O)N1CSC(C)(C)[C@H]1C(=O)NC(C)(C)C | ATH8 | - | - | trypan blue | LAI | 0.2 µM |
| CCc1cc(NCc2nc3c(Cl)ccc(Cl)c3o2)c(=O)[nH]c1C | CEM | - | - | syncytia | IIIB | 0.007 µg/mL |
| Cc1cn([C@H]2C[C@H](N=[N+]=[N-])[C@@H](CO)O2)c(=O)nc1NNc1ccccc1 | C8166 | - | - | MTT / ELISA | IIIB | 0.0025 µM |
| Cc1ccc(-c2ccc3c(c2)C=C(C(=O)Nc2ccc(C[N+](C)(C)C4CCOCC4)cc2)CCC3)cc1 | PBMC | - | - | antigen | JR-FL R5 | 0.003 µg/mL |
| CC(C)=CCN1Cc2cc(Cl)cc3[nH]c(=S)n(c23)C[C@@H]1C | CEM | - | RT-K103N | syncytia | IIIB TIBO R82913 STR-2 (RT K103N) | ≥5 µM |
| Cc1cn([C@H]2C[C@H](N=[N+]=[N-])[C@@H](CO)O2)c(=O)[nH]c1=O | CEM + CEM-SS | - | - | plaque count | IIIB | 0.005 µM |
| Cc1ccc(/C=N/NC(=O)c2csc(N3N=C(c4ccccc4)CC3c3ccc(Cl)cc3)n2)cc1 | MT-4 | - | - | MTT / absorbance | IIIB | >125 µM |
| CCCCCOCc1cn([C@H]2C[C@H](N=[N+]=[N-])[C@@H](CO)O2)c(=O)[nH]c1=O | MT-4 | - | - | ELISA / antigen | IIIB | >100 µM |
| NNC(=O)c1csc(N2N=C(c3ccccc3)CC2c2ccc(Cl)cc2)n1 | MT-4 | - | - | MTT / absorbance | IIIB | >125 µM |
| Cc1ccc(/C=C/c2cc(C)c(Oc3ccnc(Nc4ccc(C#N)cc4)n3)c(C)c2)cc1 | MT-4 | - | L100I | MTT | IIIB | 0.846 µM |
| CC(C)(C)NC(=O)C1N(C(=O)[C@@H](O)[C@H](Cc2ccccc2)NC(=O)[C@H](CS(C)(=O)=O)NC(=O)COc2cccc3ccccc23)CSC1(C)C | ATH8 | - | - | trypan blue | LAI | 0.1 µM |
| Nc1nc(Cl)c2ncn([C@H]3C=C[C@@H](CO)C3)c2n1 | MT-4 | - | - | cytopathic effect / propidium iodide | IIIB | 7.6 µM |
| CC[C@H](C)[C@@H](C(=O)O)n1sc2ccccc2c1=O | CEM | - | - | p24 / RT activity | AZT-resistant | 10.5 µM |
| CN(Cc1ccc(F)cc1F)c1ccc([N+](=O)[O-])cn1 | HEK 293 | pseudotyped | - | flow cytometry | NL4-3 | 4.4 µM |
| O=c1[nH]cnc2c1ncn2[C@H]1C=C[C@@H](CO)C1 | MT-4 | - | - | cytopathic effect / propidium iodide | IIIB | >200 µM |
| CCCCCCCCCCCCSCC(COP(=O)([O-])OCC[N+](C)(C)C)OCCCCCCCCO | CEM-SS | - | - | plaque count | 5346 WT | 0.18 µM |
| CC(C)Nc1cccnc1N1CCN(C(=O)c2cc3cc(NS(C)(=O)=O)ccc3[nH]2)CC1 | MT-2 | - | - | cytopathic effect / MTS | LAI | 0.025 µM |
| Cc1cn([C@H]2C[C@H](N=[N+]=[N-])[C@@H](CO)O2)c(=O)[nH]c1=O | CEM | - | RT-V179N | syncytia | IIIB-Pyridinone(0.1)(RT-V179N | 0.006 µM |
| CC(C)Nc1nc(N)nc2c1ncn2[C@H]1C=C[C@@H](CO)C1 | MT-4 | - | - | cytopathic effect / propidium iodide | IIIB | 52 µM |

The first 6 rows once more:

smiles | cells | setting | mutations | read by | strain | value
CCOCn1c(Cc2cc(C)cc(C)c2)c(CC)c(=O)[nH]c1=O | CEM | - | RT-K103N | syncytia | IIIB TIBO R82913 STR-2 (RT K103N) | 0.01 µM
Cc1ccnc2c1NC(=O)c1cccnc1N2C1CC1 | MT-4 | - | RES056 | MTT | IIIB | 2.221 µM
O=C(N/N=C/c1cccc(O)c1)c1csc(N2N=C(c3ccccc3)CC2c2ccc(Cl)cc2)n1 | MT-4 | - | - | MTT / absorbance | IIIB | >66.85 µM
COC(=O)c1ccc(F)c2c(C(=O)C(=O)N3CCN(C(=O)c4ccccc4)CC3)c[nH]c12 | MT-2 | - | - | p24 / ELISA / entry | 91US005 | 0.0004 µM
Cc1cn([C@@H]2O[C@H](CO[Si](C)(C)C(C)(C)C)C3(OS(=O)(=O)C=C3N)[C@H]2O[Si](C)(C)C(C)(C)C)c(=O)n(C)c1=O | CEM | - | RT-L100I Y188H | syncytia | IIIB TIBO R82913 STR-B22 (RT L100I Y188H) | ≥50 µM
Cc1cc(C#CC2CC2)cc(C)c1Oc1ccnc(Nc2ccc(C#N)cc2)n1 | MT-4 | - | K103N | MTT | IIIB | 0.013 µM

An empty or dashed field is not shown. ECn is the concentration giving n% inhibition of infection, replication or growth.